Anti-infective test results gathered from many reports (values: NIAID ChemDB through PubChem).

Common to all: growth or infection tests; agent: HIV-1; read-out: inhibition

Rows are shuffled and stem from different studies. Inhibition is in % at the dose shown (toxicity tests: loss of growth or viability). Blank or dashed fields: not listed here.

smiles | read by | cells | dose | strain | value
CC(=O)O[C@H]1C[C@@]2(C)[C@@H](C[C@@H](O)C3[C@]2(C)CC[C@H]2[C@H](C)[C@H](O)CC[C@]32C)/C1=C(/CCC=C(C)C)C(=O)O | p24 | Macrophage + Monocytes/macrophages | 10 µg/mL | IIIB | 90%
CC#C[C@]1(O)CC[C@H]2[C@@H]3CCC4=CC(=O)CCC4=C3[C@@H](c3ccc(N(C)C)cc3)C[C@@]21C | p24 / GFP | CEMx174 | 10 µM | NL4-3 | 88%
COC(=O)[C@@H](NC(=O)[C@]12CCC(C)(C)C[C@H]1C1=CC[C@@H]3[C@@]4(C)C[C@@H](O)[C@H](O)C(C)(C)[C@@H]4CC[C@@]3(C)[C@]1(C)CC2)C(C)C | p24 / ELISA | MT-2 | 25 µM | pNL4-3 | 88.9%
COC(=O)[C@H]1[C@@H]2C[C@@H](O[C@@H]3O[C@H](C)[C@@H](O)[C@H](N)[C@@H]3O)/C=C/C=C/C=C/C=C/C=C/C=C/C=C/[C@H](C)[C@@H](O)[C@H](C)[C@H](C)OC(=O)C[C@H](O)C[C@H](O)[C@@H](O)CC[C@H](O)C[C@H](O)C[C@](O)(C[C@@H]1O)O2 | p24 / antigen | H9 | 1 µg/mL | IIIB | 43%
CCOP(=O)(OCC)C(O)Cn1cc(-n2cc(C)c(=O)[nH]c2=O)nn1 |  | CEM | 100 µM | IIIB | 0%
CCOCn1c2c(c(=O)[nH]c1=O)Cc1ccccc1C2 |  | C8166 | 5 µM | IIIB | 37%
CC1(C)[C@@H](O[C@H]2O[C@H](C(=O)O)[C@@H](O)[C@H](O)[C@H]2O[C@@H]2O[C@H](C(=O)O)[C@@H](O)[C@H](O)[C@H]2O)CC[C@]2(C)[C@H]3C(=O)C=C4[C@@H]5C[C@@](C)(C(=O)O)CC[C@]5(C)CC[C@@]4(C)[C@]3(C)CC[C@@H]12 | antigen | MT-4 | 60 µM | IIIB | 6%
CC(C)[C@H](NC(=O)[C@]12CCC(C)(C)C[C@H]1C1=CC[C@@H]3[C@@]4(C)C[C@@H](O)[C@H](O)C(C)(C)[C@@H]4CC[C@@]3(C)[C@]1(C)CC2)C(=O)O | p24 / ELISA | MT-2 | 25 µM | pNL4-3 | -21.2%
CCOP(=O)(CCCn1cc(-n2ccc(=O)[nH]c2=O)nn1)OCC |  | CEM | 100 µM | IIIB | 0%
CCN(CC)C(=S)S | RT activity | H9 | 0.0000025 µg/mL | LAV | 21%
CC1CN(C(=O)c2ccccc2)CCN1C(=O)C(=O)c1c[nH]c2cccc(F)c12 | luciferase | HeLa + HELA CD4+/CCR5 | 10 µM |  | >98%
C=C(C)[C@@H]1CC[C@]2(C(=O)NCCCCCCCC(=O)N[C@@H](CC(C)C)[C@@H](O)CC(=O)O)CC[C@]3(C)[C@H](CC[C@@H]4[C@@]5(C)CC[C@H](O)C(C)(C)[C@@H]5CC[C@]43C)[C@@H]12 | β-galactosidase | HeLa P4 + HeLa | 10 µM | LAI | >99%
CC1(C)CC[C@]2(C(=O)NCCCCCC(=O)NCC(=O)O)CC[C@]3(C)C(=CC[C@@H]4[C@@]5(C)C[C@@H](O)[C@H](O)C(C)(C)[C@@H]5CC[C@]43C)[C@@H]2C1 | p24 / ELISA | MT-2 | 25 µM | pNL4-3 | -22.1%
CC1=C(C(=O)O)C(c2ccc(Cl)cc2)NC(=O)N1 | p24 / ELISA | HEK293T | 100 µM |  | 49.5%
Cc1nnc(N)nc1/C=C/c1cccs1 | cytopathic effect / XTT | CEM | 0.00635 µM |  | 1.52%
COc1ccc(Br)c2[nH]cc(C(=O)C(=O)N3CCN(C(=O)c4ccccn4)C[C@H]3C)c12 | luciferase | HeLa + HELA CD4+/CCR5 | 10 µM |  | >98%
CC1=NN2C(=N)CC(=O)N=C2N=C1/C=C/c1ccc(N(C)C)cc1 | cytopathic effect / XTT | CEM | 0.634 µM |  | 6.7%
CC(C)(C)OC(=O)Nc1cccc(C(=O)N2CCN(C(=O)C(=O)c3c[nH]c4cccc(F)c34)CC2)c1 | luciferase | HeLa + HELA CD4+/CCR5 | 10 µM |  | 98%
Cc1nnc(N)nc1/C=C/c1c(O)ccc2ccccc12 | cytopathic effect / XTT | CEM | 20 µM |  | 23.94%
CN1C2N=CN=C(N)C2=NC1c1cn(CCCP(=O)(O)O)nn1 |  | CEM | 100 µM | IIIB | 0%
Cn1[nH]c(C(F)(F)F)c(C(=O)NCc2ccc(F)cc2)c(=O)c1=O | MTT | TZM-bl | 10 µM |  | -3.5%
CCOP(=O)(OCC)C(O)n1cc(N2C=CC(NC(C)=O)NC2=O)nn1 |  | CEM | 100 µM | IIIB | 0%
CC1=C(C(=O)OCc2ccccc2)C(c2ccc([N+](=O)[O-])cc2)NC(=O)N1 | p24 / ELISA | HEK293T | 100 µM |  | 36.6%
O=C(C(=O)N1CCN(C(=O)c2ccccc2)CC1)c1c[nH]c2c(F)ccc(F)c12 | luciferase | HeLa + HELA CD4+/CCR5 | 10 µM |  | >98%
CCOP(=O)(CC(O)n1cc(-n2c[n+](C)c(=O)[nH]c2=O)nn1)OCC |  |  | 100 µM | IIIB | 0%
O=C(NCc1ccc(F)cc1)c1c(C(F)(F)F)[nH]n(C/C=C/c2ccccc2)c(=O)c1=O | MTT | TZM-bl | 10 µM |  | -27.2%
C[C@H]1CN(C(=O)c2ccccc2)CCN1C(=O)C(=O)c1c[nH]c2c([N+](=O)[O-])cccc12 | luciferase | HeLa + HELA CD4+/CCR5 | 10 µM |  | 84%
Cc1ccc(-c2ccc3c(c2)C=C(C(=O)Nc2ccc(C[N+](C)(C)C4CCOCC4)cc2)CCC3)cc1 | p24 | PBMC | 1 µM | TB6 CLADE C | 100%
C[C@H](NC(=O)[C@]12CCC(C)(C)C[C@H]1C1=CC[C@@H]3[C@@]4(C)C[C@@H](O)[C@H](O)C(C)(C)[C@@H]4CC[C@@]3(C)[C@]1(C)CC2)C(=O)O | p24 / ELISA | MT-2 | 25 µM | pNL4-3 | 39.1%
C/C(=C(/CCO)SS/C(CCO)=C(\C)N(C=O)Cc1cnc(C)nc1N)N(C=O)Cc1cnc(C)nc1N |  | CEM/LAV-1 + CEM | 250 µM | LAV-1 | 75%
CC1=C(C(=O)OCc2ccccc2)C(c2ccc(N(C)C)cc2)NC(=O)N1 | p24 / ELISA | HEK293T | 100 µM |  | 5.7%
O=c1cc(C(F)(F)F)[nH]n(-c2ccc(F)cc2)c1=O | MTT | TZM-bl | 10 µM |  | 11.61%
COc1c(Cl)cc(S)cc1C(=O)N1CCN(C(=O)C(=O)c2c[nH]c3cccc(F)c23)CC1 | luciferase | HeLa + HELA CD4+/CCR5 | 10 µM |  | >98%
C[C@H](NC(=O)CCCCCNC(=O)[C@]12CCC(C)(C)C[C@H]1C1=CC[C@@H]3[C@@]4(C)C[C@@H](O)[C@H](O)C(C)(C)[C@@H]4CC[C@@]3(C)[C@]1(C)CC2)C(=O)NCC(=O)O | p24 / ELISA | MT-2 | 25 µM | pNL4-3 | 10.4%
O=C(C(=O)N1CCN(C(=O)c2cccc(Br)c2S)CC1)c1c[nH]c2cccc(F)c12 | luciferase | HeLa + HELA CD4+/CCR5 | 10 µM |  | 97%
CC1=C(C(=O)OCc2ccccc2)C(c2ccc(F)cc2)NC(=O)N1 | p24 / ELISA | HEK293T | 100 µM |  | 4.7%
C=C(C=O)[C@@H]1CC[C@@]2(C)C1C1CCC3[C@@]4(C)CC[C@H](O)C(C)(C)C4CC[C@@]3(C)[C@]1(C)C[C@@H]2O |  | CEM.NKR-CCR5 | 1 µM |  | 60%

Again, the opening 2 rows:

smiles	read by	cells	dose	strain	value
CC(=O)O[C@H]1C[C@@]2(C)[C@@H](C[C@@H](O)C3[C@]2(C)CC[C@H]2[C@H](C)[C@H](O)CC[C@]32C)/C1=C(/CCC=C(C)C)C(=O)O	p24	Macrophage + Monocytes/macrophages	10 µg/mL	IIIB	90%
CC#C[C@]1(O)CC[C@H]2[C@@H]3CCC4=CC(=O)CCC4=C3[C@@H](c3ccc(N(C)C)cc3)C[C@@]21C	p24 / GFP	CEMx174	10 µM	NL4-3	88%